Data on 2 substances can be found in patent US5776899A (Seikagaku Corporation, priority 1993, dated 1998).

Strings that start with PEPTIDE1 are HELM notation: dots part the residues, brackets hold end groups and non-standard residues.

Data set [1] in a line: general procedure: Fmoc solid-phase peptide synthesis; DMBHA resin; DIPCDI-HOBt. The following applies: whole synthesis, calculated based on the protecting group-protected polypeptide (1) resin, scale 0.2 mmol, acetic acid salt.
Data set [2] can be described thus: general procedure: Fmoc solid-phase peptide synthesis; DMBHA resin (Fmoc-DMBHA-CH2CH2COOH on aminomethyl resin, 0.74 meq/g); DIPCDI-HOBt. The conditions noted are these: conjugation step, acetic acid salt.

Regarding “PEPTIDE1{R.R.W.C.Y.R.K.[dK].P.Y.R.K.C.R.[am]}$PEPTIDE1,PEPTIDE1,4:R3-13:R3$$$V2.0”, in data set [1], the isolated yield is 27%. As for “PEPTIDE1{[FTC].R.R.W.C.Y.R.K.[dK].P.Y.R.K.C.R.[am]}$PEPTIDE1,PEPTIDE1,5:R3-14:R3$$$V2.0”, the conjugation yield in data set [2] came out at 35%.
